# Tests used:
# Test in all cases: Antibacterial agar-well diffusion
# Assay type in all cases: cell-based
# Conditions in all cases: sample 100 mg/5 mL in DMSO; ceftriaxone sodium 20 mg/10 mL; 37 °C, 24 h; 6 mm wells
# Escherichia coli = system: Escherichia coli
# Pseudomonas aeruginosa = system: Pseudomonas aeruginosa
# Staphylococcus aureus = system: Staphylococcus aureus
smiles,measurement,setting,value
CCCCC(=O)N(Cc1ccc(-c2ccccc2-c2nn[nH]n2)cc1)C(C(=O)Oc1c([N+](=O)[O-])cc([N+](=O)[O-])cc1[N+](=O)[O-])C(C)C (stereo not drawn),Zone of Inhibition Gram -Ve Bacteria E. coli Mean ± SEM,Escherichia coli,10.93 ± 0.58 millimeters
same,Zone of Inhibition Gram -Ve Bacteria P. aeruginosa Mean ± SEM,Pseudomonas aeruginosa,11.73 ± 0.33 millimeters
same,Zone of Inhibition Gram +ve Bacteria S. aureus Mean ± SEM,Staphylococcus aureus,11.53 ± 0.58 millimeters
